Test results taken from PMC9400459 (Science (New York, N.y.), 2022).

Biological target: SARS-CoV receptor binding domain (SARS-CoV, UniProt P59594)
Assay: ELISA; mAb on sarbecovirus RBDs; EC50 of at least two independent experiments
Conditions: both partners purified

B1: S2K146 human monoclonal antibody (antibody, V domains shown)
VH: QVQLVESGGVVVQPGGSLRLSCAASGFTFHDHTMHWVRQAPGKGLEWVSLITWNGGTIHYSDSVKGRFTISRDNSKNSLYLQMNSLRTEDTALYYCAKDLGRGGWYLPSDAWGQGTLVTVSS
VL: QSVLTQPPSASGTPGQRVTISCSGSSANIGSNTVNWYQHLPGTAPKLLIYSNNQRPSGVPDRFSGSKSGTSASLAISGLQSEDEADYYCAAWDDSLKGVFGGGTKLTVL
binding result: binds
